Assay results published in US8686113B2 (priority 2009, dated 2014).

Tests used:
Assay type in all cases: cell-based
M. luteus 10240 = test: Confocal laser scanning microscopy, bacteria; conditions: 30 μmol/L, TAMRA quench, incubation for 1 h
HeLa cells = test: Fluorescence microscopy of labeled peptides; conditions: 40 μmol/L, 2 h
SH-SY5Y cells = test: Fluorescence microscopy of labeled peptides; conditions: 40 μmol/L, 2 h
E. coli BL21 A1 = test: Confocal laser scanning microscopy, bacteria; conditions: 30 μmol/L, TAMRA quench; for internalization in E. coli: time not stated

## (CF-RQIKIWFQNRRMKWKKC-OH)2 [SEQ ID NO. 104]
M. luteus 10240
  internalization (fluorescence) in M. luteus: enters Gram-positive M. luteus cells

## CF-RQIKIWFQNRRMEWKKC-(CH2CO-VDKPPYLPRPRPPRRIYNR-NH2)-OH [SEQ ID NO. 102]
HeLa cells
  internalization (fluorescence) in HeLa cells: strong fluorescence in the cell interior

## CF-RQIKIWFQNRRMKWKKC-(CH2CO-GKPRPYSPRPTSHPRPIRV-OH)-OH [SEQ ID NO. 98]
HeLa cells
  internalization (fluorescence) in HeLa cells: internalize

## CF-RQIKIWFQNRRMKWKKC-(CH2CO-GNNRPVYIPQPRPPHPRL-OH)-OH [SEQ ID NO. 96]
HeLa cells
  internalization (fluorescence) in HeLa cells: internalize

## H-CFGKPRPYSPRPTSHPRPIRV-OH [SEQ ID NO. 90, reference compound]
HeLa cells
  internalization (fluorescence) in HeLa cells: no internalization
SH-SY5Y cells
  internalization (fluorescence) in SH-SY5Y cells: no internalization
E. coli BL21 A1
  internalization in E. coli: internalize in E. coli

## H-CFGNNRPVYIPQPRPPHPRL-OH [SEQ ID NO. 88, reference compound]
HeLa cells
  internalization (fluorescence) in HeLa cells: no internalization
SH-SY5Y cells
  internalization (fluorescence) in SH-SY5Y cells: no internalization
E. coli BL21 A1
  internalization in E. coli: internalize in E. coli

## H-CFVDKPPYLPRPRPPRRIYNR-NH2 [SEQ ID NO. 94]
HeLa cells
  internalization (fluorescence) in HeLa cells: fluorescence is not detectable
SH-SY5Y cells
  internalization (fluorescence) in SH-SY5Y cells: fluorescence is not detectable
E. coli BL21 A1; 20 min plus a further 30 min
  localization in E. coli after 50 min: accumulated inside the cell
E. coli BL21 A1; incubation for 20 min
  localization in E. coli after 20 min: accumulated in the bacterial membrane
